Measurements: patent US20230365639A1, “DEFENSIN FRAGMENT DERIVED LIPOPEPTIDES FOR TREATMENT OF DRUG-RESISTANT MICROORGANISMS” (priority 2020, published 2023)
“Also recorded” adds a separate entry of the source.

System: fecal microbiota
Test: Microbiome analysis following administration of Pams (16S rRNA sequencing)
Type: in vivo, mice

Pam2-Glc-Suc-RGKAKCCK [Pam-1]
abundance of bacterial genera (oral 125 or 250 μg): did not affect; also recorded: neither Pam-1 nor Pam-3 treatment affected the abundance of bacterial genera
changes in the microbiota between before and after samples (beta diversity, weighted Unifrac Distances) (oral 125 or 250 μg, feces before and 24 hours after, vs PBS): similar
number of detected species and complexity (oral 125 or 250 μg, vs PBS): remained comparable
overall effect on microbiota (composition, community structure, diversity) (oral, healthy chow-fed mice): does not affect the overall community structure or diversity; also recorded: neither Pam-1 nor Pam-3 treatment had any appreciable effects
